System: NC(=O)c1ccc[n+]([C@@H]2O[C@H](COP(=O)(O)OP(=O)(O)OC[C@H]3O[C@@H](n4cnc5c(N)ncnc54)[C@H](O)[C@@H]3O)[C@@H](O)[C@H]2O)c1
Assay: purified protein
Conditions: pH 8.1

(Pyricularia oryzae 70-15)
Km: 857.8 ± 186.9 µM

From publication PMC6422694
